Tested on: Lake Geneva microbial community
Experiment: 14C-labeled substrate incorporation, biomass yield of lake water community
Format: cell-based
Settings: 3 days incubation

CCCCCCCCO [1-Octanol, 1-octanol]
14C based biomass yield (substrate 0.1 mg/l as sole carbon source): 0.469 ± 0.168 g/g | 14C based biomass yield (substrate 1.0 mg/l as sole carbon source): 0.396 ± 0.024 g/g | 14C based biomass yield (substrate 10 mg/l as sole carbon source): 0.233 ± 0.028 g/g

Source: patent US20230401449A1, “MEANS AND METHODS FOR CLASSIFYING MICROBES” (UNIVERSITÉ DE LAUSANNE, priority 2020, published 2023)
